Test results from US11160869B2 (priority 2019, dated 2021).

Experiment: Purification with and without sulfitolysis: SEC-HPLC forms, yield and dimer recovery after Capto Q
Experimental: Refolding in both processes was carried out at 4° C. The refolding solution used in both processes contained 1 mM reduced glutathione, 0.5 mM oxidized glutathione, 1M Arginine-HCl, 250 mM sucrose, 100 mM Tris pH 8.5 at 4° C., and 2 mM EDTA.

B1: IL-10 delivery construct: recombinant homodimeric fusion protein: N-terminal methionine, cholix386 domain, polyGlySer spacer, recombinant human IL-10 (protein)
chain: MVEEALNIFDECRSPCSLTPEPGKPIQSKLSIPSDVVLDEGVLYYSMTINDEQNDIKDEDKGESIITIGEFATVRATRHYVNQDAPFGVIHLDITTENGTKTYSYNRKEGEFAINWLVPIGEDSPASIKISVDELDQQRNIIEVPKLYSIDLDNQTLEQWKTQGNVSFSVTRPEHNIAISWPSVSYKAAQKEGSRHKRWAHWHTGLALCWLVPMDAIYNYITQQNCTLGDNWFGGSYETVAGTPKVITVKQGIEQKPVEQRIHFSKGNAMSALAAHRVCGVPLETLARSRKPRDLTDDLSCAYQAQNIVSLFVATRILFSHLDSVFTLNLDEQEPEVAERLSDLRRINENNPGMVTQVLTVARQIYNDYVTHHPGLTPEQTSAGAQAGGGGSGGGGSGGGGSPGQGTQSENSCTHFPGNLPNMLRDLRDAFSRVKTFFQMKDQLDNLLLKESLLEDFKGYLGCQALSEMIQFYLEEVMPQAENQDPDIKAHVNSLGENLKTLRLRLRRCHRFLPCENKSKAVEQVKNAFNKLQEKGIYKAMSEFDIFINYIEAYMTMKIRN
modifications: homodimer
With B1 as the molecule, how does the Dimer % (No Sulfitolysis of SIB (2x UF/DF at 4° C.), SEC-HPLC before AEX) read?
Its Dimer % is 27%.

What about the Dimer % (No Sulfitolysis of SIB (2x UF/DF for 66 h RT), SEC-HPLC before AEX) of the same molecule?
The Dimer % was 22%.

And the “Dimer content in Capto Q Load” value (No Sulfitolysis of SIB (97 mL Capto Q))?
Its value is 25%.

What about the “Dimer content in Capto Q Load” value (Sulfitolysis of SIB (97 mL Capto Q)) of the same molecule?
The value was 16.5%.

What about the Dimer % (Sulfitolysis of SIB (TFF-2 for 20 h at RT), SEC-HPLC after UF/DF, before AEX) of the same molecule?
The Dimer % was 17%.

What about the “Dimer content in Capto Q Load” value (Sulfitolysis of SIB (average of 3)) of the same molecule?
The value was 20%.
